Compound potency records, mixed from different reports. Data source: NIAID ChemDB in PubChem.

Common to all: toxicity to cultured cells; cells: MDBK; read-out: CC50

Blank or dashed fields: not listed here. CCn is the concentration with n% toxicity to the cells. Lines come from different laboratories, so protocols vary.

structure | method | value
C/C=C1/C(O[C@@H]2O[C@H](CO)[C@@H](O)[C@H](O)[C@H]2O)CC=C(C(=O)OC)C1CC(=O)OCCc1ccc(O)c(O)c1 | - | 1233 µg/mL
COC(=O)N[C@H](C(=O)N1CCC[C@H]1c1nc2ccc(-c3csc4c(-c5ccc(-c6cnc([C@@H]7CCCN7C(=O)[C@H](NC(=O)OC)c7ccccc7)[nH]6)cc5)csc34)cc2[nH]1)C(C)C | resazurin | >50 µM
CCCCN1C[C@H](O)[C@@H](O)[C@H](O)[C@H]1CO | XTT | >1000 µM
OC[C@H]1O[C@@H](n2cnc3c(NC4CCCCCC4)ncnc32)C[C@@H]1O | - | 320 µM
COC(=O)/C(C)=C/Cc1c(O)c2c(c(C)c1OC)COC2=O | - | >100 µM
OC[C@@H]1[C@@H](O)[C@H](O)[C@@H](O)CN1CCCCc1ccccc1 | - | 1000 µM
C=C1[C@H](CO)[C@@H](O)C[C@@H]1n1cnc2c(=O)[nH]c(N)nc21 | - | 78 µM
CC12COS(=O)(=O)CC1=C(c1ccc(Br)cc1)C(=O)O2 | MTT | >20 µM
CC(C)OC(=O)[C@H](C)N[P@](=O)(OC[C@H]1O[C@@](C#N)(c2ccc3c(N)ncnn23)[C@](C)(O)[C@@H]1OC(=O)C(C)C)Oc1ccccc1 | ATP | >30 µM
COC(=O)CC/C(C)=C/Cc1c(O)c2c(c(C)c1OC)COC2=O | - | >100 µM
CCC(C)CCC[C@H](C)CCN1C[C@H](O)[C@@H](O)[C@H](O)[C@H]1CO | - | 500 µM
NC(=O)C1=CSN([C@@H]2O[C@H](COP(=O)([O-])CP(=O)([O-])OCC3OC(n4cnc5c(N)ncnc54)C(F)C3O)[C@@H](O)[C@H]2O)N1 | - | >100 µM
CC12COS(=O)(=O)CC1=C(c1ccc(C(F)(F)F)cc1)C(=O)O2 | MTT | >20 µM
CCCC(=O)O[C@H]1CN2CC[C@H](O)[C@@H]2[C@@H](O)[C@@H]1O | XTT | >300 µM
COc1cc(O)c(CC=C(C)C)c(O)c1C(=O)/C=C/c1ccc(O)cc1 | - | 6.1 µg/mL
OC[C@@H]1[C@@H](O)[C@H](O)[C@@H](O)CN1CCCCCCCCCCN1C[C@H](O)[C@@H](O)[C@H](O)[C@H]1CO | - | 1000 µM
NC(=O)c1ncn([C@@H]2O[C@H](CO)[C@@H](O)[C@H]2O)c1O | - | 50.1 µM
NC(=O)C1=CSN([C@@H]2O[C@H](COP(=O)([O-])OP(=O)([O-])OCC3OC(n4cnc5c(N)ncnc54)C(F)C3O)[C@@H](O)[C@H]2O)N1 | - | >100 µM
OC[C@H]1O[C@@H](n2cnc3c(NC4CCCCCC4)ncnc32)[C@H](O)[C@@H]1O | - | >400 µM
CCC(C)CCC[C@@H](C)CCN1C[C@H](O)[C@@H](O)[C@H](O)[C@H]1CO | - | 500 µM
OC[C@H]1O[C@@H](n2cnc3c(NC4CCCC4)nc(Cl)cc32)[C@H](O)[C@@H]1O | - | 228 µM
OC[C@@H]1[C@@H](O)[C@H](O)[C@@H](O)CN1CCCC1CCCCC1 | - | 300 µM
COc1c(C)c2c(c(O)c1C/C=C(\C)COP(=O)(O)CP(=O)(O)OC[C@H]1O[C@@H](n3cnc4c(N)ncnc43)[C@H](O)[C@@H]1O)C(=O)OC2 | - | 100 µM
Cn1cnc([N+](=O)[O-])c1Sc1ncnc2nc[nH]c12 | - | >40 µM
Cc1ccc(C2=C3CS(=O)(=O)OCC3(C)OC2=O)cc1 | MTT | >20 µM
CCCCCCCCCN1C[C@H](O)[C@@H](O)[C@H](O)[C@H]1CO | - | 175 µM

The first 3 rows once more:

| structure | method | value |
|---|---|---|
| C/C=C1/C(O[C@@H]2O[C@H](CO)[C@@H](O)[C@H](O)[C@H]2O)CC=C(C(=O)OC)C1CC(=O)OCCc1ccc(O)c(O)c1 | - | 1233 µg/mL |
| COC(=O)N[C@H](C(=O)N1CCC[C@H]1c1nc2ccc(-c3csc4c(-c5ccc(-c6cnc([C@@H]7CCCN7C(=O)[C@H](NC(=O)OC)c7ccccc7)[nH]6)cc5)csc34)cc2[nH]1)C(C)C | resazurin | >50 µM |
| CCCCN1C[C@H](O)[C@@H](O)[C@H](O)[C@H]1CO | XTT | >1000 µM |